## PSTVd loop 6 mutant pool in Nicotiana benthamiana

Values reported by Wu et al. 2024 (doi:10.1371/journal.ppat.1012142).

The pool varies loop 6 of the PSTVd intermediate strain in the pattern UNNNCGNNNG; wild type is UGACCGCGAG (upper and lower strand joined, each 5' to 3', the first 5 letters being the upper strand, closing pairs included).

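A pool of all variants was put on leaves of three Nicotiana benthamiana plants. Progeny were sequenced from the inoculated region (day 5), the margin of the inoculated leaf (day 10) and systemic leaves (day 12).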

Values are reads per thousand in the sample; higher means more abundant, 0 means not found.
Each value is the mean of three plants.
"Pool" is the share in the plasmid pool used as inoculum, on the same scale.
The inoculated region was read from the minus strand, the other sites from the plus strand.
IR is the inoculated region, LM the leaf margin, Sys the systemic leaves.

* UCUACGAAGG (pool 0.157): IR 0.131; LM 0.0276; Sys 0
* UGCUCGAAGG (pool 0.170): IR 0.0833; LM 0.00920; Sys 0
* UACGCGUGCG (pool 0.209): IR 0.0472; LM 0.0155; Sys 0
* UCUGCGAUCG (pool 0.248): IR 0.101; LM 0; Sys 0
* UGUCCGGGGG (pool 0.222): IR 0.130; LM 0; Sys 0
* UCGUCGCAAG (pool 0.0654): IR 0.162; LM 0.0155; Sys 0
* UCUCCGCCAG (pool 0.170): IR 0.0771; LM 0.00920; Sys 0
* UCGGCGAGUG (pool 0.288): IR 0.101; LM 0; Sys 0
* UCUACGUCAG (pool 0.288): IR 0.124; LM 0.0261; Sys 0
* UUUACGAGUG (pool 0.248): IR 0.112; LM 0; Sys 0
* UGGACUACUA (pool 0.0131): IR 0; LM 0; Sys 0
* UGUUCUACGG (pool 0.0131): IR 0; LM 0; Sys 0
* UUCGCGUGAG (pool 0.288): IR 0.107; LM 0.00920; Sys 0
* UUCCCGAAGG (pool 0.209): IR 0.113; LM 0; Sys 0
* UUAUCUACGG (pool 0.0131): IR 0; LM 0; Sys 0
* UCAACGUCAG (pool 0.235): IR 0.600; LM 0.0943; Sys 0
* UUGACGAAAG (pool 0.288): IR 0.0961; LM 0; Sys 0
* UUAACGCAUG (pool 0.0915): IR 0.107; LM 0.00773; Sys 0.0474
* UCAGCGAGAG (pool 0.157): IR 0.101; LM 0; Sys 0
* UAGUCGGUAG (pool 0.275): IR 0.0898; LM 0.00773; Sys 0
* UAAGCGGUCG (pool 0.327): IR 0.0646; LM 0.00920; Sys 0
* UUAACGGAUG (pool 0.235): IR 0.530; LM 0.0676; Sys 0
* UGAGCGUUAG (pool 0.301): IR 0.793; LM 0.0368; Sys 0
* UUUACGCCUG (pool 0.314): IR 0.0956; LM 0.00773; Sys 0
* UCUCCGAGAG (pool 0.118): IR 0.123; LM 0.00841; Sys 0
* UGCCCGAAGG (pool 0.0654): IR 0.107; LM 0; Sys 0
* UCGCCGAGAG (pool 0.157): IR 0.612; LM 0.0360; Sys 0
* UUCACGACGG (pool 0.275): IR 0.0959; LM 0; Sys 0
* UCAGCGGUCG (pool 0.288): IR 0.0781; LM 0; Sys 0
* UAUGCGGGGG (pool 0.0915): IR 0.107; LM 0.0155; Sys 0
* UCUCCGCGGG (pool 0.170): IR 0.0836; LM 0.00773; Sys 0
* UUUCCGGUAG (pool 0.353): IR 0.136; LM 0.0155; Sys 0.00599
* UGGUCGGGAG (pool 0.275): IR 0.679; LM 0.110; Sys 0
* UGACCGGAGG (pool 0.0915): IR 0.143; LM 0.127; Sys 0.0273
* UAAACGGGAG (pool 0.144): IR 3.78; LM 1.14; Sys 1.31
* UAGACGAUUG (pool 0.209): IR 0.120; LM 0; Sys 0

A selection of 4 entries from above:

sequence	pool	IR	LM	Sys
UCGCCGAGAG	0.157	0.612	0.0360	0
UGUCCGGGGG	0.222	0.130	0	0
UAGACGAUUG	0.209	0.120	0	0
UAGUCGGUAG	0.275	0.0898	0.00773	0

Samples held 36,220 to 57,551 reads, so the smallest values rest on one or two reads.
For reference, wild type rose from 20.7 per thousand in the pool to 195, 198, 203 (inoculated region), 629, 591, 734 (leaf margin) and 942, 870, 868 (systemic leaves).
Sequences that differ at fixed positions probably stem from PCR or sequencing errors, and defective variants can be carried along by functional ones.